The values below come from paper PMC12245108 (Advanced Science, 2025).

In the assay the target is MPXV I7L protease (Monkeypox virus, UniProt Q8V512). Kind of assay: FRET-based protease assay (N-tagged MPXV I7L protease). It is filed as biochemical.

With `CCOC(=O)[C@H]1O[C@@H]1C(=O)N[C@@H](CC(C)C)C(=O)NCCC(C)C`, the IC50 – broadly, the concentration needed to halve the response being measured – (FRET-based protease assay, N-tagged protease) came to 9.1 µM. Moreover, the inhibition rate (compound at 100 µM, 200 nM N-tagged protease, 5 µM substrate, 75 mM NaCl, 50% glycerol, pH 7.5) was determined as 102.5%.
